Measured values from several laboratories, pooled; numbers as filed in NIAID ChemDB.

All rows: growth or infection tests; organism: Candida albicans; endpoint: MIC

Blank or dashed fields: not listed here. Lines come from different laboratories, so protocols vary.

compound	strain	read by	value
CC(C)n1[se]c2ccccc2c1=O		agar	2 µg/mL
CC(C)=CCC[C@H](C)c1ccc(C)cc1			>50 µg/mL
CCOC(=O)n1[se]c2ccccc2c1=O		agar	129 µg/mL
CC[C@@]1(O)C(=O)OCc2c1cc1n(c2=O)Cc2cc3c(N)c4c(cc3nc2-1)OCO4	A39		>100 µg/mL
COc1cc(O)c2c(c1)C(=O)c1c(cc3c(c1O)-c1c(cc(C)c(C(=O)NC(C)C(=O)O)c1O)[C@H](O)[C@H]3OC1OC(C)C(O)C(O)C1O)C2=O	A9540		>100 µg/mL
c1ccc(CN(Cc2ccccn2)Cc2c3ccccc3cc3ccccc23)nc1	ATCC 10213	broth dilution	>1000 µg/mL
CC(=O)C(NC(=O)C1CCCN1C)C(C)C	MUCC 29		6 µg/mL
CCC(C)n1ncn(-c2ccc(N3CCN(c4ccc(OC[C@H]5CO[C@](Cn6cncn6)(c6ccc(Cl)cc6Cl)O5)cc4)CC3)cc2)c1=O	Isogenic isolate 7 MDR1 (25X)		0.03 µg/mL
CC(C)C(C)/C=C/[C@@H](C)[C@H]1CCC2C3C[C@@H](O)[C@@]4(O)C[C@@H](O)CC[C@]4(C)C3CC[C@@]21C			250 µg/mL
CC(=O)C(Cc1c[nH]c2ccccc12)NC(=O)C1CCCN1C(=O)C(C)C	MUCC 29		12.5 µg/mL
COc1cc(O)c2c(c1)C(=O)c1c(cc3c(c1O)-c1c(cc(C)c(C(=O)NC(C)C(=O)O)c1O)[C@H](OC1OC(CO)C(O)C(O)C1O)[C@H]3O)C2=O	A9540		>100 µg/mL
CC(=O)C(Cc1ccccc1)NC(=O)C(C)Cc1cnc[nH]1	MUCC 29		6 µg/mL
c1ccc(Nc2ccc3ccccc3c2)cc1			>500 µg/mL
CNC1C(C)OC(O[C@H]2c3cc(C)c(C(=O)NC(C)C(=O)OC)c(OC4OC(CO)C(O)C(O)C4O)c3-c3c(cc4c(c3O)C(=O)c3cc(OC)cc(O)c3C4=O)[C@@H]2O)C(O)C1OC1OC(CO)C(O)C(O)C1O	A9540		>100 µg/mL
CC1=C[C@H]2O[C@@H]3CC4OC(=O)/C=C\C=C\C(=O)OCC[C@H](C)[C@H](C)C(=O)OC[C@@]2(CC1)[C@]4(C)[C@]31CO1			31.25 µg/mL
CC(=O)C(C)C(C)O	MUCC 29		12.5 µg/mL
O=C(NC1CCCCC1)n1[se]c2ccccc2c1=O		agar	10 µg/mL
COc1cc(O)c2c(c1)C(=O)c1c(cc3c(c1O)-c1c(cc(C)c(C(=O)NC(C)C(=O)O)c1O)[C@H](OC1OC(C)C(O)C1O)[C@H]3O)C2=O	A9540		>100 µg/mL
C[C@@H]1O[C@@H](O[C@@H]2[C@@H](O)[C@H](OCCc3ccc(O)c(O)c3)O[C@@H](CO)[C@H]2OC(=O)/C=C/c2ccc(O)c(O)c2)[C@H](O)[C@H](O)[C@H]1O	ATCC 10231	broth dilution	250 µg/mL
CC(=O)C(Cc1ccccc1)NC(=O)C(C)CC(C)C	MUCC 29		6 µg/mL
OC(Cn1cncn1)(Cn1cncn1)c1ccc(F)cc1F	YL 319	broth dilution	512 µg/mL
CCOC(Cn1[se]c2ccccc2c1=O)OCC		agar	314 µg/mL
CN[C@H]1[C@@H](O[C@@H]2O[C@H](CO)[C@@H](O)[C@H](O)[C@H]2O)[C@H](O)[C@@H](O[C@H]2c3cc(C)c(C(=O)N[C@H](C)C(=O)OC)c(O)c3-c3c(cc4c(c3O)C(=O)c3cc(OC)cc(O)c3C4=O)[C@@H]2O)O[C@H]1C	A9540		25 µg/mL
CCC(=O)NCC(C)=O	MUCC 29		25 µg/mL
COC(=O)Cn1[se]c2ccccc2c1=O		agar	135 µg/mL
C=C1/C=C(\C)[C@H](CC)OC(=O)[C@H](C)C(=O)C(O)(CO)C/C(OC)=C/[C@@H](C)C1	ATCC 90028		2.5 µg/mL
COc1cc(OC)c2ccc(=O)oc2c1			30 µg/mL
CN[C@@H]1[C@H](O[C@@H]2OC[C@@H](O)[C@H](O)[C@H]2O)[C@@H](O)[C@H](O[C@H]2c3cc(C)c(C(=O)N[C@H](C)C(=O)O)c(O)c3-c3c(cc4c(c3O)C(=O)c3cc(OC)cc(O)c3C4=O)[C@@H]2O)O[C@@H]1C	A9540		6.3 µg/mL
CC(=O)C(C)CCCN=C(N)N[N+](=O)[O-]	MUCC 29		12.5 µg/mL
CCCNC(=O)n1[se]c2ccccc2c1=O		agar	9 µg/mL
Clc1ccc(CC[C@@H](Cn2ccnc2)Sc2c(Cl)cccc2Cl)cc1			5 µg/mL
CN(C)CCn1[se]c2ccccc2c1=O		agar	>512 µg/mL
CC[C@@]1(O)C(=O)OCc2c1cc1n(c2=O)Cc2c-1nc1cc3c(cc1c2C)OCO3	A39		>100 µg/mL
COc1ccc2ccc(=O)oc2c1			40 µg/mL
CC(C)=CCC/C(C)=C/CC/C(C)=C/CC[C@@]1(C)[C@H](CCCO)/C(=C(/C)C=O)CC[C@]1(C)O	SR75		>50 µg/mL
O=c1c(O)c(-c2ccc(O)c(O)c2)oc2cc(O)cc(O)c12	ATCC 10231	broth dilution	125 µg/mL
COc1cc(O)c(C(C)=O)c(OC)c1			25 µg/mL
C[C@H]1[C@H](C)CC[C@]2(C(=O)O)CC[C@]3(C)C(=CC[C@@H]4[C@@]5(C)CC[C@H](O)C(C)(C)[C@@H]5CC[C@]43C)[C@H]12	IFO1061		>200 µg/mL
CC(=O)O[C@@H]1C[C@]2(C)C3=C(CC[C@H]2C(C)(C)[C@H]1O[C@@H]1C[C@H](CO)[C@@H](O)[C@H](O)[C@H]1O)[C@@]1(C)CC[C@](C)([C@H](C)C(C)C)[C@@H](C(=O)O)[C@]1(C)CC3	FP633		1.6 µg/mL

For reference, 5 entries again:

compound,strain,read by,value
COc1cc(O)c(C(C)=O)c(OC)c1,,,25 µg/mL
COc1cc(OC)c2ccc(=O)oc2c1,,,30 µg/mL
CC(C)=CCC[C@H](C)c1ccc(C)cc1,,,>50 µg/mL
O=c1c(O)c(-c2ccc(O)c(O)c2)oc2cc(O)cc(O)c12,ATCC 10231,broth dilution,125 µg/mL
CN[C@@H]1[C@H](O[C@@H]2OC[C@@H](O)[C@H](O)[C@H]2O)[C@@H](O)[C@H](O[C@H]2c3cc(C)c(C(=O)N[C@H](C)C(=O)O)c(O)c3-c3c(cc4c(c3O)C(=O)c3cc(OC)cc(O)c3C4=O)[C@@H]2O)O[C@@H]1C,A9540,,6.3 µg/mL